According to publication PMC7695343, “Structural Insight into Integrin Recognition and Anticancer Activity of Echistatin” (2020):

Target: integrin αvβ3 expressed on CHO cells (CHO-αvβ3) (UniProt P06756)

Substance Ech (K45E) (natural protein) has an IC50 of inhibition of migration of human melanoma A375 cells (transwell, 6 h) of 13.3 nM.
